PubChem BioAssay AID1224833, University of Georgia | 2016
In all, the deposit lists about 12,000 reagents; below is an unselected part. About 5,600 of all reagents (46%) were called active. 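Active calls cover z-scores past 1 in both directions, so they include lowered as well as raised rotavirus replication.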

Assay: 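Host factors restraining rotavirus as candidate antiviral genes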 (primary screen)
System: monkey MA104 kidney cells
Reagents: siRNA pool against human genes, 50 nM
Duration: 48 h knock-down before infection; read 24 h after infection
Conditions: infection with rotavirus strain RV3 two days after transfection; infectious dose for this stage not given
Measured: 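z-score of rotavirus antigen signal per well, from a fluorescent immunoassay, relative to non-targeting control wells on the same plate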
Scale: z-score vs non-targeting control: higher = more rotavirus replication than with non-targeting control
Active means: In these data the active calls have z-score vs non-targeting control at about -1 or lower, or at about 1 or higher
Meaning of the calls: active = z-score beyond 1 either way; inactive = z-score within 1 of zero

The opening 3 entries as a preview:
| gene | z-score vs non-targeting control | activity call |
| --- | --- | --- |
| RBM47 | 0.935 | inactive |
| BHLHE41 | -0.28 | inactive |
| CAGE1 | -1 | active |

Results, repeating the preview:
| gene | z-score vs non-targeting control | activity call |
| --- | --- | --- |
| RBM47 | 0.935 | inactive |
| BHLHE41 | -0.28 | inactive |
| CAGE1 | -1 | active |
| OPCML | -0.889 | inactive |
| SLC22A16 | 0.659 | inactive |
| CCNE2 | -2.47 | active |
| CPSF6 | -0.107 | inactive |
| IQUB | 0.813 | inactive |
| NFIX | -0.504 | inactive |
| GATA2 | -1.87 | active |
| SAT1 | -0.589 | inactive |
| SEZ6L2 | -1.25 | active |
| LVRN | 0.482 | inactive |
| ATPAF2 | -0.477 | inactive |
| ASXL2 | -0.335 | inactive |
| HJV | -0.582 | inactive |
| OFCC1 | -1.16 | active |
| THSD1 | -1.33 | active |
| CALML3 | -1.03 | active |
| CEACAM7 | 0.897 | inactive |
| DEPP1 | -1.24 | active |
| SH3GLB1 | -0.972 | inactive |
| FGF7 | -0.318 | inactive |
| PRAMEF6 | -0.664 | inactive |
| BET1L | -0.346 | inactive |
| SLC4A1AP | -1.72 | active |
| BATF2 | 1.06 | active |
| POLN | -1.2 | active |
| EGR4 | -0.635 | inactive |
| OR2B2 | 0.0781 | inactive |
| STX6 | 0.388 | inactive |
| ATF6B | -0.977 | inactive |
| UNC79 | -3.03 | active |
| STRBP | -1.26 | active |
| FRS2 | 0.167 | inactive |
| WDR83 | 0.157 | inactive |
| JAG1 | 1.26 | active |
| URM1 | -2.22 | active |
| SLC29A1 | -1.25 | active |
| SLC12A6 | -1.27 | active |
| SART3 | -0.919 | inactive |
| SHCBP1 | -0.807 | inactive |
| EDDM3B | -0.333 | inactive |
| DAG1 | -1.43 | active |
| MECP2 | 1.03 | active |
